Values of other authors in patent US20240261253A1, “DAUR[…] AND IT'S USE IN MEDICINE” (Phytotherapeutix Ltd., priority 2021, published 2024).

Tested on: HIV
Conditions: uninfected H9 growth EC50 / anti-HIV EC50; cited from earlier work

Compound: CC(C)=CCC/C(C)=C/CC[C@@]1(C)C=Cc2c(cc(C)c(C(=O)O)c2O)O1 [(+)-DCA, (S,E)-2-(4,8-dimethylnona-3,7-dien-1-yl)-5-hydroxy-2,7-dimethyl-2H-chromene-6-carboxylic acid]
- therapeutic index: 3,710
